Compound potency records, mixed from different reports. Data source: NIAID ChemDB in PubChem.

Common to all: whole-cell or culture tests; organism: HIV-1; read-out: EC50

An empty or dashed field is not shown. Two numbers with a dash give a range or band. ECn: concentration that inhibits the pathogen or its effect by n%. Lines come from different laboratories, so protocols vary.

structure	setting	strain	read by	mutations	cells	result
CCN1c2ncc(CCOc3ccc(C(=O)Nc4ccccc4C(=O)O)cc3C)cc2C(=O)N(C)c2cccnc21			p24	RT-K103N Y181C	C8166	>0.05 µM
C[C@H]1[C@H](O)[C@@H](C)/C=C/C=C/C=C/C=C/C=C/C=C/C=C/[C@H](O[C@@H]2O[C@H](C)[C@@H](O)[C@H](N)[C@@H]2O)C[C@@H]2O[C@](O)(C[C@@H](O)C[C@@H](O)CC[C@H](O)[C@@H](O)C[C@@H](O)CC(=O)O[C@H]1C)C[C@H](O)[C@H]2C(=O)O		93BR020 CLADE F R5/X4 (SI)	p24 / RT activity		PBMC	0.5 µM
CC(C)=CCC/C(C)=C/CC/C(C)=C/Cc1c(O)cc2c(c1OS(=O)(=O)O)CN(C[C@@H]1O[C@@H](O)[C@@H](O)[C@H](O)[C@H]1O)C2=O	pseudotyped		luciferase / luminescence		SupT1	49.6 µM
CCN(C(=O)[C@H](Cc1ccccc1)NC(=O)CNC(=O)c1ccccc1)c1ccccc1		NL4-3	XTT		TZM-gfp	2.5 µM
Clc1cc(CN2CCCNCCNCCCNCC2)cc(Cl)n1		HE R3 R5 X4	p24		U87-CD4-CCR3 + U87	>40 µM
Nc1ccn([C@H]2CC[C@@H](CO)O2)c(=O)n1		NL4-3	luciferase / cell fusion		CEM/1G5 T	<1 µM
CCc1c(Sc2cc(C)cc(C)c2)n(COCc2ccccc2)c(=S)[nH]c1=O		IIIB	syncytia	RT-Y181C	CEM	0.32 µM
Nc1nccc2c1ncn2[C@@H]1C=C(CO)[C@@H](O)[C@H]1O			β-galactosidase		HeLa CD4+/TAT+ + HeLa	0.41 µM
CCN(CC)C(=S)SSC(=S)N(CC)CC		ADA	p24		Macrophage + Monocytes/macrophages	>100 µM
Cc1cc(C#N)cc(C(=O)c2cc(Cl)ccc2OCC(=O)Nc2ccc(S(N)(=O)=O)cc2C)c1		HXB2	β-galactosidase	RT-P225H	HeLa + HELA CD4+	<0.01 µM
Cc1ccc(N(C)C(=O)[C@H](Cc2ccccc2)NC(=O)CNC(=O)c2ccccc2)cc1		NL4-3	XTT		TZM-gfp	1.6 µM
CC(C)(O)[C@@H]1CC[C@@]2(C)CCC[C@](C)(O)[C@@H]2C1		deltaTAT/Rev MC99	syncytia		1A2	177.2 µM
Cc1cn(C2C[C@H](N=[N+]=[N-])[C@@H](COP(=O)(Nc3cc(C(=O)Nc4cc(C(=O)Nc5cc(C(=O)NCCC#N)n(C)c5)n(C)c4)n(C)c3)OC(C)C)O2)c(=O)[nH]c1=O			p24 / antigen		CEM/TK-	1.15 µM
Cc1cc(S(N)(=O)=O)ccc1NC(=O)COc1ccc(Cl)cc1C(=O)c1cccc(C#N)n1		HXB2 (RT-K103N Y181C) Recombinant	β-galactosidase	RT-K103N Y181C	HeLa + HELA CD4+	<0.01 µM
CC(O)CCCCCC(CCCCCCCCCCCCCC1CC(=O)OC[C@H]2O[C@@H](OC(CCCCCCCCCCCC(CCCCCC(C)O)O[C@@H]3O[C@H](CO)[C@@H](O)[C@H](O)[C@H]3O)CC(=O)OC[C@@H]3O[C@H](O1)[C@@H](O)[C@H](O)[C@H]3O)[C@H](O)[C@@H](O)[C@@H]2O)O[C@@H]1O[C@H](CO)[C@@H](O)[C@H](O)[C@H]1O		JR-FL	β-galactosidase		MAGI (CCR5) + MAGI	3.5 µg/mL
Cc1cn(CC(=O)N[C@@H](Cc2ccccc2)C(=O)N(C)c2ccc(Cl)cc2)c(=O)[nH]c1=O		NL4-3	GFP		TZM-gfp	1.7 µM
CC(C)[C@H](NC(=O)[C@H](NCc1ccccc1)[C@H](O)[C@H](Cc1ccccc1)NC(=O)[C@@H](NC(=O)OCc1ccccc1)C(C)(C)C)C(=O)NCc1ccccc1		IIIB	MTT / p24		U-937	0.0766 µM
C#C[C@]1(CO)O[C@@H](n2cnc3c(NC(=O)CCCCCCCCCCCCC)nc(F)nc32)C[C@@H]1O		NL4-3	luminescence	gp160 M184V	U373-CD4-CXCR4	0.0074 µM
CCN1c2ncc(CCOc3ccc(-c4cc(C(=O)O)c(C)o4)cc3)cc2C(=O)N(C)c2cccnc21		IIIB	p24		C8166	0.01–0.05 µM
C#C[C@]1(CO)O[C@@H](n2cnc3c(N)nc(F)nc32)C[C@@H]1OC(=O)OCCCCCCCCCCCCCCCCCCC		NL4-3	luminescence	gp160 M184V	U373-CD4-CXCR4	19.36 µM
C=C(C)[C@@H]1CC[C@]2(C(=O)NCCCCCCCCC(=O)N[C@H](CCC(N)=O)C(=O)OC)CC[C@]3(C)[C@H](CC[C@@H]4[C@@]5(C)CC[C@H](OC(=O)CC(C)(C)C(=O)O)C(C)(C)[C@@H]5CC[C@]43C)[C@@H]12		NL4-3	absorbance	V370A		0.158 µM
CCN1c2ncc(CCOc3ccc(C(=O)Nc4ccc(CC(=O)O)cc4)cc3C)cc2C(=O)Nc2c(C)ccnc21			p24	RT-K103N Y181C	C8166	>0.05 µM
Cc1cn([C@H]2C=C[C@@H](COP(=O)(Nc3cc(C(=O)Nc4cc(C(=O)Nc5cc(C(=O)NCCC#N)n(C)c5)n(C)c4)n(C)c3)OC3CCCCC3)O2)c(=O)[nH]c1=O			syncytia		CEM/TK-	1.31 µM
CCN1c2ncc(CCOc3ccc(Nc4cccc(CC(=O)O)c4)cc3C)cc2C(=O)N(C)c2cccnc21			p24	RT-K103N Y181C	C8166	<0.01 µM
COc1cc(CC[C@H](C[C@@H](CCc2cc(OC)c(OC)c(OC)c2)OC(C)=O)OC(C)=O)cc(OC)c1OC		deltaTAT/Rev MC99	syncytia		1A2	60.9 µM
CCOCn1c(Sc2ccccc2)c(CC)c(=O)[nH]c1=S		IIIB	syncytia		CEM	0.011 µM
Cc1cc(C)cc(C(=O)c2cc(Cl)ccc2OCC(=O)Nc2ccc(S(N)(=O)=O)cc2C)c1		HXB2	β-galactosidase	RT-K103N	HeLa + HELA CD4+	<0.01 µM
C#C[C@]1(CO)O[C@@H](n2cnc3c(N)nc(F)nc32)C[C@@H]1OC(=O)OCC		NL4-3	luminescence	gp160 M184V	U373-CD4-CXCR4	0.1852 µM
CN(C(=O)[C@H](Cc1ccccc1)NC(=O)c1c[nH]c(=O)[nH]c1=O)c1ccccc1		NL4-3	GFP		TZM-gfp	>20 µg/mL
C[C@H]1CC[C@@H]2C(C)(C)[C@H](O)CC[C@]2(C)[C@@]12Cc1c(O)cc3c(c1O2)CN(CCCC(=O)O)C3=O	pseudotyped		luciferase / luminescence		SupT1	59.5 µM
Cc1cn([C@H]2C=C[C@@H](COP(=O)(Nc3cc(C(=O)Nc4cc(C(=O)Nc5cc(C(=O)NCCC#N)n(C)c5)n(C)c4)n(C)c3)OC(C)C)O2)c(=O)[nH]c1=O			syncytia		CEM/TK-	0.88 µM
CCc1c(Sc2ccccc2)n(COCc2ccccc2)c(=S)[nH]c1=O		IIIB (TIBO 82150) (RT-L100I)	syncytia	RT-L100I	CEM	0.03 µM
C=C(C)[C@@H]1CC[C@]2(C(=O)NCCCCCCCC(=O)N[C@@H](CC(C)C)[C@@H](O)CC(=O)O)CC[C@]3(C)[C@H](CC[C@@H]4[C@@]5(C)CC[C@H](O)C(C)(C)[C@@H]5CC[C@]43C)[C@@H]12		LAI-R(GP41-R22A)	syncytia	R22A	HeLa P4 + HeLa	<10 µM
Nc1nccc2c1ncn2[C@@H]1C[C@H](CO)[C@@H](O)[C@H]1O			β-galactosidase		HeLa CD4+/TAT+ + HeLa	7.4 µM
CCc1c(Sc2cc(C)cc(C)c2)n(COCCO)c(=S)[nH]c1=O		IIIB	syncytia	RT-Y181C	CEM	0.55 µM
CC1=C(C(=O)Nc2cc(C(=O)OC(C)C)c(Cl)cc2F)SCCO1		IIIB	cytopathic effect / XTT		MT-2/MT2(HIV-1) + MT-2	0.014 µg/mL
O=C(COc1ccc(Cl)cc1C(=O)c1ccccc1)Nc1ccc2cn[nH]c2c1		WTRVA	β-galactosidase		HeLa + HELA CD4+	<0.01 µM
CCOCn1c(Cc2cc(C)cc(C)c2)c(CC)c(=O)[nH]c1=O		IIIB (TIBO 82150) (RT-L100I)	syncytia	RT-L100I	CEM	0.008 µM
COc1cnc(-n2cnc(C)n2)c2c1c(C(=O)C(=O)N1CCN(C(=O)c3ccccc3)CC1)cn2COP(=O)(O)O		AD8	luciferase		U-87	0.0024 µM
Cc1cc(S(N)(=O)=O)ccc1NC(=O)COc1ccc(Cl)cc1C(=O)c1cc(F)cc(C#N)c1		HXB2 (RT-K103N G190A) Recombinant	β-galactosidase	RT-K103N G190A	HeLa + HELA CD4+	0.011–0.1 µM
CCN1c2ncc(CCOc3ccc(C(=O)NN)cc3C)cc2C(=O)N(C)c2cccnc21			p24	RT-K103N Y181C	C8166	<0.01 µM
CC(C)c1c(Sc2ccccc2)n(COCc2ccccc2)c(=O)[nH]c1=O		IIIB	syncytia		CEM	0.003 µM
CC(C)=CCC/C(C)=C/CC/C(C)=C/Cc1c(O)cc2c(c1O)CNC2=O	pseudotyped		luciferase / luminescence		SupT1	17.7 µM
Cc1cc(S(N)(=O)=O)ccc1NC(=O)COc1ccc(Cl)cc1C(=O)c1cc(F)cc(F)c1		HXB2	β-galactosidase	RT-K103N L100I	HeLa + HELA CD4+	<0.01 µM
CN(CCc1ccccc1)Cc1ccc2c(c1)C[C@H](CN=C(N)N)[C@H]2NC(=O)C(=O)Nc1ccc(Cl)c(F)c1		YU2	luminescence		Cf2Th-CD4/CCR5	2.2 µM
Cc1cc(S(N)(=O)=O)ccc1NC(=O)COc1ccc(Cl)cc1C(=O)c1cc(Cl)cc(C#N)c1		HXB2	β-galactosidase	RT-K103N	HeLa + HELA CD4+	<0.01 µM
CCN1c2ncc(CCOc3ccc(C(=O)Nc4nc(CC(=O)O)cs4)cc3C)cc2C(=O)N(C)c2cccnc21		IIIB	p24		C8166	0.01–0.05 µM
C=C[C@@H](O)C1=C[C@@H](n2cnc3c(N)ncnc32)[C@H](O)[C@@H]1O			β-galactosidase		HeLa CD4+/TAT+ + HeLa	6.16 µM
C#C[C@]1(COCOC(=O)C(C)C)O[C@@H](n2cnc3c(N)nc(F)nc32)C[C@@H]1O		NL4-3	luminescence	gp160 M184V	U373-CD4-CXCR4	0.498 µM
CC(C)[C@H](NC(=O)[C@H](NCc1ccc(Cl)cc1)[C@H](O)[C@H](Cc1ccccc1)NC(=O)[C@@H](NC(=O)OCc1ccccc1)C(C)(C)C)C(=O)NCc1nc2ccccc2[nH]1		IIIB	MTT / p24		U-937	0.016 µM
CCc1c(Sc2cc(C)cc(C)c2)n(COCc2ccccc2)c(=O)[nH]c1=O		IIIB	syncytia	Nevirapine resistant (RT Y181C)	CEM	0.1 µM
C#C[C@]1(CO)O[C@@H](n2cnc3c(NC(=O)OCC)nc(F)nc32)C[C@@H]1O		NL4-3	luminescence	gp160 M184V	U373-CD4-CXCR4	6.29 µM
CC(C)C1=C[C@@H]2[C@H](CC[C@@]2(C)O)[C@@](C)(O)CC1		deltaTAT/Rev MC99	syncytia		1A2	266.8 µM
Cc1nnc(C(=O)NC(C)(C)c2nc(C(=O)NCc3ccc(F)cc3)c(O)c(=O)n2C)o1		NL4-3	GFP	T97A E138K G140S Q148H	CEM-GXR	>1 µM
CCN(C)Cc1ccc2c(c1)C[C@H](CN=C(N)N)[C@H]2NC(=O)C(=O)Nc1ccc(Cl)c(F)c1		JR-FL	luminescence		Cf2Th-CD4/CCR5	10 µM
CC(C)[C@H](NC(=O)OCc1ccccc1)C(=O)N[C@@H](Cc1ccccc1)[C@@H](O)[C@@H](NCc1ccccc1)C(=O)N[C@H](C(=O)NCc1ccccc1)C(C)C		IIIB	MTT / p24		HuT-78 + HUT 78	0.173 µM
Cc1cn([C@H]2C[C@H](N=[N+]=[N-])[C@@H](COP(=O)(Nc3cc(C(=O)Nc4cc(C(=O)Nc5cc(C(=O)NCCC(=N)N)n(C)c5)n(C)c4)n(C)c3)OC3CCCCC3)O2)c(=O)[nH]c1=O			syncytia		CEM/TK-	0.97 µM
CC1(C)CCC[C@@]2(C)[C@H]1CC[C@@]1(CO1)[C@@H]2C/C=C1\CCOC1=O		deltaTAT/Rev MC99	syncytia		1A2	26.1 µM
CNCc1ccc2c(c1)[C@H](NC(=O)C(=O)Nc1ccc(Cl)c(F)c1)[C@@H](CN=C(N)N)C2		AD8	luciferase / entry		Cf2Th-CD4/CCR5	>100 µM
C[C@H](Cn1cnc2c(N)ncnc21)OCP(=O)(O)OP(=O)(O)OCCOCn1cnc2c(=O)[nH]c(N)nc21		BaL			Macrophage	>1 µM
CC(C)[C@H](NC(=O)OCc1ccccc1)C(=O)N[C@@H](Cc1ccccc1)[C@@H](O)[C@@H](NCc1ccccc1)C(=O)N[C@H](C(=O)NCc1nc2ccccc2[nH]1)C(C)C		IIIB	MTT / p24		U-937	0.048 µM
C[C@@H]1CCO[C@H]2Cn3cc(C(=O)NCc4ccc(F)cc4F)c(=O)c(O)c3C(=O)N12		NL4-3	GFP	T97A E138K G140S Q148H	CEM-GXR	0.073 µM
C#C[C@]1(COC(=O)OCC)O[C@@H](n2cnc3c(N)nc(F)nc32)C[C@@H]1O		NL4-3	luminescence	gp160 M184V	U373-CD4-CXCR4	0.1123 µM
CN(C(=O)[C@H](Cc1ccccc1)NC(=O)CNC(=O)c1ccccc1)c1ccc(Cl)cc1		NL4-3	GFP		TZM-gfp	0.88 µM
O=S(=O)(O)NC1C(O)OC(COS(=O)(=O)O)C(O)C1O		IIIB	syncytia		SUP-T1 + H9 + Sup-T1	>1000 µg/mL
C#C[C@]1(CO)O[C@@H](n2cnc3c(N)nc(F)nc32)C[C@@H]1OC(=O)OCCCCCCCCCCCCCCCCCCCC		NL4-3	luminescence	gp160 M184V	U373-CD4-CXCR4	>25 µM
O=S(=O)(O)OC1C(OS(=O)(=O)O)C(OS(=O)(=O)O)C(OS(=O)(=O)O)C(OS(=O)(=O)O)C1OS(=O)(=O)O		IIIB	syncytia		SUP-T1 + H9 + Sup-T1	>1000 µg/mL
Cc1ccnc2c1NC(=O)c1cccnc1N2C1CC1		SF33	p24 / ELISA	Y188L	TZM-bl	10 µM
NC(N)=NCCC[C@H](NC(=O)[C@H](CCCN=C(N)N)NC(=O)[C@@H](N)CCCN=C(N)N)C(=O)O		IIIB	syncytia		SUP-T1 + H9 + Sup-T1	>1000 µg/mL
Cc1nnc(-c2cccc(-c3cccc(C(=O)N4CCCCC4)c3)c2)o1	pseudotyped	CE0217	luminescence		TZM-bl	>30 µM